According to PubChem BioAssay AID2234 (The Scripps Research Institute Molecular Screening Center, 2010):
Only a part is listed here, and it is no random draw. Activity calls are given as the source filed them. Cut-off read from the data, not from the text of the source: active = inhibition above about 33%; inactive = the rest.

Sequences of proteins named here, by UniProt entry; tags and fusion partners are left off. A change or cut given only in a name is not applied to a line headed by its entry.
UniProt P03206: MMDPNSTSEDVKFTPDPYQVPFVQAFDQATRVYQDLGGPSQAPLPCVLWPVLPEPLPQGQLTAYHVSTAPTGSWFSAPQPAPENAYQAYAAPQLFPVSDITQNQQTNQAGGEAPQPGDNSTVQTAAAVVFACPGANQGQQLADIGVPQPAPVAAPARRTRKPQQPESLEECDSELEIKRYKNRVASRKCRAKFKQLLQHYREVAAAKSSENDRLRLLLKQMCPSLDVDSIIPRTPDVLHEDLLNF

The molecules below were run against Lytic switch protein BZLF1 (Epstein-Barr virus (strain B95-8)) (UniProt P03206) (assay: Zta-DNA interaction blockers, Epstein-Barr virus – biochemical, fluorescence polarization, single concentration, counter-screen for EBNA-1 inhibitor project, primary screen (AID 2234)). Details: ZTA-DNA binding, at 11 µM, stronger effect = higher value.

| Compound | inhibition |
| --- | --- |
| O=C(Nc1cc([As](=O)(O)O)ccc1O)c1ccccc1 | inactive: -2.28% |
| CC(C)(C)C(=O)NC(Sc1ccncn1)C(Cl)(Cl)Cl (configuration not stated) | inactive: 16.8% |
| O=[N+]([O-])c1ncn(CCn2ncnc2[N+](=O)[O-])n1 | inactive: 1.41% |
| O=[N+]([O-])c1cccc(NC2=NCC(CBr)S2)c1 (configuration not stated) | inactive: 3.36% |
| COc1ccc(C2=NCC(CBr)S2)cc1 (configuration not stated) | inactive: 2.52% |
| O=[N+]([O-])c1cccc2n[nH]nc12 | inactive: -11% |
| CC(=O)N1C2C3N(C(C)=O)C1C1N(C(C)=O)C(C(N1C(C)=O)N3C(C)=O)N2C(C)=O | inactive: 9.63% |
| CCc1nc2c(n1)c1c(non1O)c1c2no[n+]1[O-] | inactive: 9.46% |
| O=[N+]([O-])c1cc([N+](=O)[O-])c(CCNc2ccccc2)c([N+](=O)[O-])c1 | inactive: -5.4% |
| Cc1ccc(NP(=O)(Oc2ccccc2)Oc2ccccc2)nc1 | inactive: -9.61% |
| C[N+]1=C2C=CC=CC=C2SC12C([N+](=O)[O-])=CC([N+](=O)[O-])=C[C-]2[N+](=O)[O-] (configuration not stated) | inactive: 29.1% |
| Nc1ccc([As](=O)(O)c2ccc(N)cc2)cc1 | inactive: -14.8% |
| CCN(/C(=N/P(=O)(N1CCOCC1)N1CCOCC1)N1CCOCC1)c1ccc(OC)cc1 | inactive: -16.3% |
| CN(C)C(=O)OCCc1n(C)cc[n+]1C | inactive: 0.52% |
| CC(C)=N/N=C(\N)N[N+](=O)[O-] | inactive: -9.14% |
| CC1CCN(C(=O)Oc2c(Cl)cc(Cl)c3cccnc23)CC1 | inactive: -8.29% |
| NC(=O)c1cc([N+](=O)[O-])cc([N+](=O)[O-])c1N | inactive: 5.35% |
| Cc1ccc(N/C(=N/P(=O)(N2CCOCC2)N2CCOCC2)N2CCOCC2)cc1 | inactive: 8.28% |
| CN(C(=O)Cc1ccc(Cl)c(Cl)c1)[C@H]1CCCC[C@H]1N1CCCC1 | inactive: -9.09% |
| Cc1ccc(OP(=O)(Nc2nccs2)Oc2ccc(C)cc2)cc1 | inactive: 3.43% |
| COc1ccccc1OP(=O)(Nc1ccc(C)cn1)Oc1ccccc1OC | inactive: -1.66% |
| CN1CCCC(OC(=O)C(c2ccccc2)c2ccccc2)C1 (configuration not stated) | inactive: 4.8% |
| Clc1ccc(Cl)c(NC2=NCC(CBr)S2)c1 (configuration not stated) | inactive: 11.7% |
| Nc1cc(N)c2nonc2c1[N+](=O)[O-] | inactive: 2.28% |
| CC(C)CC(=O)NC(Sc1ccc(Cl)cc1)C(Cl)(Cl)Cl (configuration not stated) | inactive: 1.75% |
| O=C(NC(Sc1ccncn1)C(Cl)(Cl)Cl)c1ccccc1 (configuration not stated) | inactive: -6.21% |

| Compound | inhibition |
| --- | --- |
| Cc1c2non([O-])c-2c(C)[n+](=O)[n+]1[O-] | inactive: 11.3% |
| Oc1ccccc1CNc1ccccn1 | inactive: 12.2% |
| CC(=O)Nc1ccc([As](=O)(O)O)cc1 | inactive: -4.85% |
| O=C(O)c1ccccc1[As](=O)(O)O | inactive: -16.2% |
| O=P(Nc1nc2ccc(Cl)cc2s1)(c1ccccc1)c1ccccc1 | inactive: -5.01% |
| Cc1ccc(NP(=O)(Oc2ccccc2F)Oc2ccccc2F)nc1 | inactive: 6.31% |
| CN(C(=O)Cc1ccc(Cl)c(Cl)c1)[C@H]1CCCC[C@@H]1N1CCCC1 | inactive: -10.5% |
| Cc1cc(SC(NC(=O)c2ccc(F)cc2)C(Cl)(Cl)Cl)ncn1 (configuration not stated) | inactive: 5.22% |
| CCOP(=O)(Nc1ccccc1)OCC | inactive: 9.05% |
| O=[N+]([O-])c1cc([N+](=O)[O-])c(CCN2CCOCC2)c([N+](=O)[O-])c1 | inactive: 4.45% |
| CCN(N=Nc1nonc1N)c1nonc1N | inactive: -8.01% |
| CCNC(=S)/N=C(\N)N[N+](=O)[O-] | inactive: 8.87% |
| O=C(NC1CCS(=O)(=O)C1)NP(=S)(Oc1ccccc1)Oc1ccccc1 (configuration not stated) | inactive: -1.19% |
| Cc1ccc(NP(=O)(Oc2cccc(C)c2)Oc2cccc(C)c2)nc1 | inactive: 3.74% |
| CCOC(=O)NC(Sc1ccccc1)C(Cl)(Cl)Cl (configuration not stated) | inactive: 2% |
| c1ccc(-c2nn[nH]n2)c(-c2nn[nH]n2)c1 | inactive: -5.33% |
| CC(=O)NC(SC(=S)N(CC(C)C)CC(C)C)C(Cl)(Cl)Cl (configuration not stated) | inactive: -2.11% |
| Cc1ccc(OP(=O)(Nc2ccccn2)Oc2ccc(C)cc2)cc1 | inactive: 3.59% |
| COC(=O)c1cc2c(s1)N=C(c1ccccc1)N(C)P2(=O)N1CCOCC1 (configuration not stated) | inactive: -7.82% |
| CCC(=O)N1C2C3N(C(=O)CC)C1C1N(C(=O)CC)C(C(N1C(=O)CC)N3C(=O)CC)N2C(=O)CC | inactive: 16.6% |
| O=C(OC1CN2CCC1CC2)c1ccccc1 (configuration not stated) | inactive: -14.1% |
| CN(C)C(=O)Oc1noc2ccccc12 | inactive: 4.97% |
| Cc1ccccc1OP(=O)(Nc1ccccn1)Oc1ccccc1C | inactive: -4.87% |
| CCOc1ccc(C2=NCC(CBr)S2)cc1 (configuration not stated) | inactive: 14.2% |
| O=P1(Nc2nc3ccc(Cl)cc3s2)COc2ccccc2O1 (configuration not stated) | inactive: -3.8% |
| CC(C)(C)C(=O)NC(Sc1ccccc1)C(Cl)(Cl)Cl (configuration not stated) | inactive: -18% |

| Compound | inhibition |
| --- | --- |
| CC(=O)c1ccc(N2CC2c2ccncc2)cc1 (configuration not stated) | inactive: -9.54% |
| C[C@H]1OP(=O)(Oc2ccccc2)C[C@@H]2O[C@@H]21 (some centres not stated) | inactive: -8.51% |
| C[C@@H]1C=CCP(=O)(Oc2ccccc2)O1 (some centres not stated) | inactive: 1.75% |
| Cc1ccccc1CN(C)C(=O)COC(=O)C(O)(c1ccccc1)c1ccccc1 | inactive: -0.08% |
| CC(=O)Nc1ccc(Oc2c([N+](=O)[O-])cc([N+](=O)[O-])cc2[N+](=O)[O-])cc1 | inactive: 3.64% |
| CC(=O)Nc1ccc([As](=O)(O)O)c(O)c1 | inactive: -7.31% |
| CC(C)C(=O)NC(Sc1ccccc1)C(Cl)(Cl)Cl (configuration not stated) | inactive: -6.59% |
| O=P(Nc1nccs1)(c1ccccc1)c1ccccc1 | inactive: 3.27% |
| c1nnnn1CCn1cnnn1 | inactive: -1.35% |
| O=P(Nc1ccccn1)(c1ccc(Br)cc1)c1ccc(Br)cc1 | inactive: 6.26% |
| CN(C)C1(CNC(=O)c2ccc(Cl)c(S(N)(=O)=O)c2)CCCCC1 | inactive: -13.1% |
| C[C@H]1OP(=O)(Oc2ccccc2)[C@H](O)[C@H](O)[C@H]1N=[N+]=[N-] (some centres not stated) | inactive: 7.14% |
| O=P(Nc1nc2ccccc2s1)(c1ccccc1)c1ccccc1 | inactive: 6.82% |
| O=[N+]([O-])c1ccc(O)c(/C=N/Nc2ccc([N+](=O)[O-])cc2[N+](=O)[O-])c1 | inactive: -6% |
| CC(=O)NC(SC(=S)N(C)C)C(Cl)(Cl)Cl (configuration not stated) | inactive: 3.36% |
| O=[N+]([O-])c1ncn(CCn2cnc([N+](=O)[O-])n2)n1 | inactive: -5.22% |
| O=[As](O)(c1ccccc1)c1ccc(O)cc1 | inactive: -5.7% |
| C(Cc1nn[nH]n1)Cc1nn[nH]n1 | inactive: -2.03% |
| Nc1ccc([As](=O)(O)c2ccc([N+](=O)[O-])cc2)cc1 | inactive: 3.04% |
| O=C(OC1CN2CCC1CC2)c1cccc(Cl)c1 (configuration not stated) | inactive: 18.2% |
| CC1CCC(C(C)C)C(OP(=O)(Nc2ccccn2)c2ccccc2)C1 (configuration not stated) | inactive: 9.27% |
| Cc1ccc(C(=O)OC2CN3CCC2CC3)cc1 (configuration not stated) | inactive: 8.3% |
| Cc1nn(-c2ccccc2)c2c1P(=O)(N1CCOCC1)N(C)C(c1ccccc1)=N2 (configuration not stated) | inactive: -3.82% |
| O=C(/C=C/c1ccccc1)OC1CN2CCC1CC2 (configuration not stated) | inactive: -2.34% |
| CN(C)C1(CNC(=O)c2ccc(S(C)(=O)=O)cc2)CCCCC1 | inactive: 1.84% |
| O=P1(Nc2ncccn2)COc2ccccc2OC1 | inactive: 13.3% |

| Compound | inhibition |
| --- | --- |
| Cc1ccc(OCC(=O)OC2CN3CCC2CC3)cc1 (configuration not stated) | inactive: -1.09% |
| O=[As](O)(c1cccs1)c1cccs1 | inactive: -2.36% |
| O=P1(Nc2ccc(Br)cn2)COc2ccccc2OC1 | inactive: -15.5% |
| NS(=O)(=O)c1cccc(NC(=O)COC(=O)C(O)(c2ccccc2)c2ccccc2)c1 | inactive: 3.82% |
| Nc1cccc([As](=O)(O)c2ccccc2)c1 | inactive: 9.91% |
| CCOP(=O)(Nc1ccc(C)cn1)OCC | inactive: -3.58% |
| CN(CCCl)Cc1cc(Cl)c(NC2=NCCN2)c(Cl)c1 | inactive: -1.07% |
| CCOP(=O)(NC(=NC(C)c1ccccc1)NC(C)c1ccccc1)OCC (configuration not stated) | inactive: -18.5% |
| O=P1(Nc2ccccn2)COc2ccccc2OC1 | inactive: -7.67% |
| CCC1=CC2Cc3nc4ccc(Cl)cc4c(N)c3C(C1)C2 (configuration not stated) | inactive: 3.17% |
| CC(C)(C)C(=O)NC(Sc1ncccn1)C(Cl)(Cl)Cl (configuration not stated) | inactive: -7.81% |
| Clc1n[nH]nc1-c1nn[nH][15n]1 | inactive: 4.9% |
| COc1ccccc1CNC(=O)COC(=O)C(O)(c1ccccc1)c1ccccc1 | inactive: 6.38% |
| CC1(CBr)Cn2c(nc3ccccc3c2=O)S1 (configuration not stated) | inactive: 2.79% |
| CC(C)/C=N\N=C(\N)N[N+](=O)[O-] | inactive: -12.9% |
| CN(C(=O)Cc1ccc(Cl)c(Cl)c1)[C@@H]1CCCC[C@H]1N1CCCC1 | inactive: 13.1% |
| CS(=O)(=O)c1ccc(Cl)c(NC(=O)COC(=O)C(O)(c2ccccc2)c2ccccc2)c1 | inactive: -10.5% |
| O=[As](O)(O)c1cccnc1 | inactive: 4.88% |
| COc1cc(C(=O)NCC2(N3CCOCC3)CCCCC2)cc(Cl)c1OC(C)C | inactive: 1.55% |
| O=C(OC1CN2CCC1CC2)c1ccc(Cl)cc1 (configuration not stated) | inactive: -3.78% |
| Cc1cccc(OCC(=O)OC2CN3CCC2CC3)c1 (configuration not stated) | inactive: -8.02% |
| O=[As](O)(c1cccc(O)c1)c1cccc(O)c1 | inactive: 4.53% |
| CCCOP(=S)(Nc1nc(N)cc(=O)[nH]1)OCCC | inactive: 1.54% |
| Cc1ccc(NCCc2c([N+](=O)[O-])cc([N+](=O)[O-])cc2[N+](=O)[O-])cc1 | inactive: -0.13% |
